Assay: Half life was determined
Type: ADME
Details: rat

## NP(=O)(O)N(CCCl)CCCl
  T1/2: 18 min
